A mixed list of measured activities; the numbers were collected in NIAID ChemDB.

Common to all: enzyme or target tests; species: HIV-1; protein: Reverse transcriptase; endpoint: fold resistance

An empty or dashed field is not shown. Fold resistance: result on the changed form divided by that on wild type. Lines come from different laboratories, so protocols vary. a–b is a range or a potency band.

smiles	strain or isolate	mutations	method	value
Cc1c(Cc2c(F)cccc2F)nc(N(C)C)[nH]c1=O	IIIB	RT-K103N	nucleotide incorporation / radiometric	12.5
CCc1cc(CCc2nc3ccccc3o2)c(=S)[nH]c1C		RT-Y181C	nucleotide incorporation	190
CCC1(c2ccc(CNc3ccccc3)cc2)Oc2ccccc2-n2cccc2C1=O		RT-K103N	nucleotide incorporation / radiometric	27.7
Cc1c(C(C)c2c(F)cccc2F)nc(N(C)C)[nH]c1=O		RT-Y188L	nucleotide incorporation / radiometric	7
CCC1(c2ccc(COc3ccccc3)cc2)Oc2ccccc2-n2cccc2C1=O		RT-L100I	nucleotide incorporation / radiometric	1.3
CC(C)=CCOc1cc(NC(=S)c2ccoc2C)ccc1Cl		RT-V106A P225H	nucleotide incorporation / radiometric	157
CC(C)=CCN1Cc2cccc3[nH]c(=S)n(c23)C[C@@H]1C		RT-E138K		2.37
C/C=C/CSc1cc(NC(=S)c2ccsc2C)ccc1Cl		RT-M184V		1.07
CCC1(c2ccc(CCc3ccccc3)cc2)Oc2ccccc2-n2cccc2C1=O		RT-Y188L	nucleotide incorporation / radiometric	>58.8
CC(C)=CCOc1cc(NC(=S)c2ccoc2C)ccc1Cl		RT-Y181I		2.97
Cc1occc1C(=S)Nc1ccc(Cl)c(/C=N/OC(C)(C)C)c1		RT-Y181I		5.05
Nc1ncnc2c1ncn2[C@H]1CC[C@@H](COP(=O)(O)OP(=O)(O)OP(=O)(O)O)O1		RT-L74V	ELISA	2.49
Nc1nc2c(ncn2[C@H]2CC[C@@H](COP(=O)(O)OP(=O)(O)OP(=O)(O)O)O2)c(=O)[nH]1		RT-E138K		0.293
Cc1c(Sc2ccccc2)n(COCCO)c(=O)[nH]c1=O		RT-Y181I	nucleotide incorporation	20
CCN1c2ncc(CCOc3ccc(CCC(=O)NN)c4ccccc34)cc2C(=O)N(C)c2cccnc21		RT-Y188L	nucleotide incorporation / radiometric	>10
Cc1cc(C)cc(S(=O)(=O)c2c(C(=O)NNCCO)[nH]c3ccc(Cl)cc23)c1		RT-L101I	nucleotide incorporation / radiometric	250
CC(C)=CCN1Cc2cc(Cl)cc3[nH]c(=O)n(c23)C[C@@H]1C		RT-P225H	nucleotide incorporation / radiometric	2
Cc1cn([C@@H]2O[C@H](CO[Si](C)(C)C(C)(C)C)C3(OS(=O)(=O)C=C3N)[C@H]2O[Si](C)(C)C(C)(C)C)c(=O)n(C)c1=O	IIIB	RT-P225H	RT activity	2.2
Cc1cc(S(N)(=O)=O)ccc1NC(=O)COc1ccc(Cl)cc1C(=O)c1cc(Cl)cc(C#N)c1		RT-K103N	fluorescence	1.05
CC(C)(C)OC(=O)Cn1cnc2c(Oc3ccccc3[N+](=O)[O-])nc(NC(=O)OCc3ccccc3)nc21	NNRTI-resistant	Y181I	nucleotide incorporation / radiometric	10.8
CCC1(c2cccc(Cl)c2)Oc2ccccc2-n2cccc2C1=O		RT-V106A	nucleotide incorporation / radiometric	5.5
CCN1c2ncc(CCOc3ccc(/C=C(\C)C(=O)O)c4ccccc34)cc2C(=O)Nc2c(C)cc(F)nc21		RT-Y188L	nucleotide incorporation / radiometric	>10
CCc1c(Sc2ccccn2)n(COCc2ccccc2)c(=O)[nH]c1=O		RT-P236L		1
c1ccc(C2SCc3nc4ccccc4n32)cc1		RT-Y188L		>2
CCN1c2ncc(CCOc3ccc(/C(C)=C/C(=O)O)c4ccccc34)cc2C(=O)N(C)c2cccnc21		RT-V106A	nucleotide incorporation / radiometric	>10
Cc1c(C(C)c2c(F)cccc2F)nc(N2CCOCC2)[nH]c1=O	IIIB	RT-V179D	nucleotide incorporation / radiometric	>6670
CCC1(c2ccc(CNc3cccc(F)c3)cc2)Oc2ccccc2-n2cccc2C1=O		RT-L100I	nucleotide incorporation / radiometric	6.25
CCc1cc(CCc2nc3ccccc3o2)c(=O)[nH]c1C		RT-K103N	nucleotide incorporation	59
CCN1c2ncc(CCOc3cccc4c3CCCN4CC(=O)O)cc2C(=O)N(C)c2cccnc21		RT-V106A	nucleotide incorporation / radiometric	>10
CC(=O)c1ccc(C)cc1NC(C(N)=O)c1c(Cl)cccc1Cl	IIIB	RT-V106A	RT activity	12
CCC1(c2cccc(COc3ccccc3)c2)Oc2ccccc2-n2cccc2C1=O		RT-L100I	nucleotide incorporation / radiometric	1.875
CNc1ccc(Cl)cc1S(=O)(=O)c1ccccc1[N+](=O)[O-]		RT-Y181I		2
CCN1c2ncc(CCOc3ccc(C(=O)O)c4ccccc34)cc2C(=O)Nc2c(C)cc(Cl)nc21		RT-K103N Y181C	nucleotide incorporation / radiometric	1–10
Cc1cn([C@H]2CC[C@@H](COP(=O)(O)OP(=O)(O)OP(=O)(O)O)O2)c(=O)[nH]c1=O		RT-K103N	RT activity	0.75
Cc1cn([C@H]2C=C[C@@H](COP(=O)(O)OP(=O)(O)OP(=O)(O)O)O2)c(=O)[nH]c1=O		RT-N137A	nucleotide incorporation / radiometric	0.9
CCOCn1c(Cc2ccccc2)c(C(C)C)c(=O)[nH]c1=O		RT-V106A	nucleotide incorporation / radiometric	11
O=C(O)Cn1cnc2c(=O)[nH]c(NC(=O)OCc3ccccc3)nc21	NNRTI-resistant	K103N	nucleotide incorporation / radiometric	8.2
CCN1c2ncc(CCOc3ccc(CCC(=O)O)c4ccccc34)cc2C(=O)N(C)c2ccc(C)nc21		RT-Y188L	nucleotide incorporation / radiometric	>10
Nc1ccn([C@H]2CC[C@@H](COP(=O)(O)OP(=O)(O)OP(=O)(O)O)O2)c(=O)n1		RT-T215Y K219Q	ELISA	0.89
CCN1c2ncc(CCOc3ccc4cc(C(=O)O)ccc4c3)cc2C(=O)N(C)c2cccnc21		RT-V106A	nucleotide incorporation / radiometric	1–10
CCC1(c2ccc(COc3cccc(Cl)c3)cc2)Oc2ccccc2-n2cccc2C1=O		RT-K103N	nucleotide incorporation / radiometric	3

The first 2 rows once more:

{"smiles": "Cc1c(Cc2c(F)cccc2F)nc(N(C)C)[nH]c1=O", "strain or isolate": "IIIB", "mutations": "RT-K103N", "method": "nucleotide incorporation / radiometric", "value": "12.5"}
{"smiles": "CCc1cc(CCc2nc3ccccc3o2)c(=S)[nH]c1C", "mutations": "RT-Y181C", "method": "nucleotide incorporation", "value": "190"}